A mixed list of measured activities; the numbers were collected in NIAID ChemDB.

All rows: tests in culture; organism: HIV-1; cells: MT-4; measure: EC50

ECn is the concentration giving n% inhibition of infection, replication or growth. Lines come from different laboratories, so protocols vary. Blank or dashed fields: not listed here.

compound	strain	changes	read by	value
Nc1ccn([C@H]2CC[C@@H](CO)O2)c(=O)n1	HXB2D (RT-M184V)	RT-M184V	p24	2.5 µM
CC(C)=CCN1C(C)C(=O)N(C)c2ccc(Cl)cc2S1(=O)=O	IIIB	-	cytopathic effect / MTT	14 µM
CCN1C(=O)N(Cc2cccc(Cl)c2)S(=O)(=O)c2cscc21	IIIB	-	syncytia	2.5 µM
Cc1cccc(COCn2c(Sc3cccc4ccccc34)c(C(C)C)c(=O)[nH]c2=O)c1	IIIB	-	cytopathic effect / MTT	0.25 µM
CC(C)=CCN1Cc2cccc3[nH]c(=S)n(c23)C[C@@H]1C	IIIB	-	-	<0.2 µM
CCOCn1c(Sc2cccc3ccccc23)c(CC)c(=O)[nH]c1=O	IIIB	-	cytopathic effect / MTT	0.15 µM
Cc1cn([C@H]2C[C@H](N=[N+]=[N-])[C@@H](COC(=O)CCC(=O)OC[C@H]3O[C@@H]4O[C@H]5[C@H](O)[C@@H](O)[C@@H](O[C@H]6[C@H](O)[C@@H](O)[C@@H](O[C@H]7[C@H](O)[C@@H](O)[C@@H](O[C@H]8[C@H](O)[C@@H](O)[C@@H](O[C@H]9[C@H](O)[C@@H](O)[C@@H](O[C@H]%10[C@H](O)[C@@H](O)[C@@H](O[C@H]3[C@H](O)[C@H]4O)O[C@@H]%10CO)O[C@@H]9CO)O[C@@H]8CO)O[C@@H]7CO)O[C@@H]6CO)O[C@@H]5CO)O2)c(=O)[nH]c1=O	IIIB	-	cytopathic effect / MTT	0.014 µg/mL
CC(=O)Nc1cccc(C#Cc2cc(C)c(Oc3ccnc(Nc4ccc(C#N)cc4)n3)c(C)c2)c1	IIIB	-	MTT	0.016 µM
O=C1N(Cc2ccccc2)c2cscc2S(=O)(=O)N1Cc1ccccc1	RF	-	syncytia	5.5 µM
Cc1ccnc2c1NC(=O)c1cccnc1N2C1CC1	LAI	-	cytopathic effect / MTT	0.032 µM
Cc1cc(C#Cc2cccc(N)c2)cc(C)c1Oc1ccnc(NC2CCN(Cc3ccc(C(N)=O)cc3)CC2)n1	IIIB	Y181C	MTT	0.032 µM
Cc1cn([C@H]2C[C@H](N=[N+]=[N-])[C@@H](CO)O2)c(=O)[nH]c1=O	IIIB	-	cytopathic effect / MTT	0.0041 µM
Cc1cn([C@H]2C[C@H](N=[N+]=[N-])[C@@H](COC(=O)CCC(=O)OC[C@H]3O[C@@H]4O[C@H]5[C@H](O)[C@@H](O)[C@@H](O[C@H]6[C@H](O)[C@@H](O)[C@@H](O[C@H]7[C@H](O)[C@@H](O)[C@@H](O[C@H]8[C@H](O)[C@@H](O)[C@@H](O[C@H]9[C@H](O)[C@@H](O)[C@@H](O[C@H]3[C@H](O)[C@H]4O)O[C@@H]9CO)O[C@@H]8CO)O[C@@H]7CO)O[C@@H]6CO)O[C@@H]5CO)O2)c(=O)[nH]c1=O	IIIB	-	cytopathic effect / MTT	0.008 µg/mL
Cc1cn([C@H]2C[C@H](N=[N+]=[N-])[C@@H](CO)O2)c(=O)[nH]c1=O	92UG021 (subtype D)	-	MTT	0.001 µg/mL
N#CCN1C(=O)N(Cc2ccccc2)S(=O)(=O)c2cscc21	NDK	-	syncytia	6 µM
Cc1cn([C@H]2C[C@H](N=[N+]=[N-])[C@@H](CO)O2)c(=O)[nH]c1=O	NL432	-	cytopathic effect / trypan blue	0.003 µM
CCN1C(=O)Nc2ccc(Cl)cc2S1(=O)=O	IIIB	-	cytopathic effect / MTT	13 µM
Cc1cn([C@H]2C[C@H](N=[N+]=[N-])[C@@H](CO)O2)c(=O)[nH]c1=O	-	Y188L	MTT	0.0147 µM
Cc1cc(C#Cc2cccc(N)c2)cc(C)c1Oc1ccnc(Nc2ccc(C#N)cc2)n1	IIIB	Y181C	MTT	0.259 µM
CN1C(=O)N(Cc2ccccc2)S(=O)(=O)c2cscc21	ADP/141	RT-D67N K70R T215F K219Q	syncytia	4.9 µM
N#Cc1ccccc1C#CC1(C2CC2)NC(=O)Nc2ccc(Cl)cc21	IIIB	-	-	<0.012 µM
Cc1cn([C@H]2C[C@H](N=[N+]=[N-])[C@@H](CO)O2)c(=O)[nH]c1=O	IIIB	F227L + V106A	MTT	0.004 µM
CC(C)c1c(Sc2cccc3ccccc23)n(COCc2cccc(F)c2)c(=O)[nH]c1=O	IIIB	-	cytopathic effect / MTT	0.11 µM
CC(C)[C@H](NC(=O)OCc1ccccn1)C(=O)N[C@@H](Cc1ccccc1)C(=O)C(F)(F)[C@H](Cc1ccccc1)NC(=O)[C@@H](NC(=O)OCc1ccccn1)C(C)C	IIIB	-	cytopathic effect / MTT	0.04 µM
CC(=O)Nc1cccc2c1nc(-c1c(F)cccc1F)n2Cc1c(F)cccc1F	-	RT-L100I	cytopathic effect / MTT	31.6 µM
CCOCn1c(Sc2cccc3ccccc23)c(CC(C)C)c(=O)[nH]c1=O	IIIB	-	cytopathic effect / MTT	7.37 µM
Nc1ccn([C@H]2CC[C@@H](CO)O2)c(=O)n1	IIIB	ddI-2-resistant	-	0.66 µM
Nc1cccc2c1nc(-c1c(F)cccc1F)n2Cc1c(F)cccc1F	-	RT-V179D	cytopathic effect / MTT	0.3 µM
O=C1Nc2ccc(Cl)cc2C(C#Cc2ccccc2)(C2CC2)N1	IIIB	-	-	<0.1 µM
Cc1ccc(/C=C/c2cc(C)c(Oc3ccnc(Nc4ccc(C#N)cc4)n3)c(C)c2)cc1	IIIB	K103N	MTT	0.189 µM
CCN1C(=O)c2cccn2-c2ccccc2S1(=O)=O	IIIB	-	cytopathic effect / MTT	200 µM
CC(C)[C@H](NC(=O)CCc1ccccn1)C(=O)N[C@@H](Cc1ccccc1)C(=O)C(F)(F)[C@H](Cc1ccccc1)NC(=O)[C@H](NC(=O)CCc1ccccn1)C(C)C	IIIB	-	cytopathic effect / MTT	0.05 µM
Cc1cc(C#N)cc(C)c1Oc1nc(Nc2ccc(C#N)cc2)nc(N)c1Br	-	E138K	MTT	0.006 µM
Cc1cc(C#CC2CC2)cc(C)c1Oc1ccnc(Nc2ccc(C#N)cc2)n1	IIIB	L100I	MTT	0.163 µM
CC(C)C[C@H](NC(=O)[C@@H](NC(=O)N(C)Cc1ccccn1)C(C)C)C(=O)C(F)(F)[C@H](CC(C)C)NC(=O)[C@@H](NC(=O)N(C)Cc1ccccn1)C(C)C	IIIB	-	cytopathic effect / MTT	2.3 µM
CCN1C(c2ccccc2)c2cccn2-c2ccc(Cl)cc2S1(=O)=O	IIIB	-	cytopathic effect / MTT	>7.4 µM
c1cc(CN2CCCNCCNCCCNCC2)ccc1CN1CCCNCCNCCCNCC1	Y181C (subtype B)	-	MTT	0.002 µg/mL
Cc1cc(C#N)cc(C)c1Oc1nc(Nc2ccc(C#N)cc2)ncc1SCC(=O)N1CCSCC1	-	RES056	MTT	3.91 µM
Cc1cc(C#Cc2ccccc2N)cc(C)c1Oc1ccnc(Nc2ccc(C#N)cc2)n1	IIIB	RES056	MTT	>8.88 µM
CC(C)[C@H](NC(=O)N(C)Cc1ccccn1)C(=O)N[C@@H](Cc1ccccc1)C(=O)C(F)(F)[C@H](Cc1ccccc1)NC(=O)[C@@H](NC(=O)N(C)Cc1ccccn1)C(C)C	IIIB	-	cytopathic effect / MTT	0.035 µM
CCN1C(C)C(=O)Nc2ccc(Cl)cc2S1(=O)=O	IIIB	-	cytopathic effect / MTT	≥200 µM
CNc1cccc2c1nc(-c1c(F)cccc1F)n2Cc1c(F)cccc1F	-	RT-Y181C	cytopathic effect / MTT	0.26 µM
CCc1c(Sc2ccc3ccccc3c2)n(COCc2ccccc2)c(=O)[nH]c1=O	IIIB	-	cytopathic effect / MTT	0.65 µM
CC(=O)N(C)c1cccc2c1nc(-c1c(F)cccc1F)n2Cc1c(F)cccc1F	-	RT-L100I	cytopathic effect / MTT	0.16 µM
Cc1cc(C#Cc2cccc(N)c2)cc(C)c1Oc1ccnc(NC2CCN(Cc3ccc(C#N)cc3)CC2)n1	IIIB	RES056	MTT	>0.261 µM
CCCN(C)c1c(Cc2cc(C)cc(C)c2)c(CC)c(C)[nH]c1=O	Recombinant	RT-Y188L	cytopathic effect / MTT	0.398 µM
Fc1cccc(F)c1Cn1c(-c2c(F)cccc2F)nc2c(Br)cccc21	-	RT-Y188C	cytopathic effect / MTT	3.4 µM

A second listing of 6 rows from above:

compound | strain | changes | read by | value
c1cc(CN2CCCNCCNCCCNCC2)ccc1CN1CCCNCCNCCCNCC1 | Y181C (subtype B) | - | MTT | 0.002 µg/mL
CCN1C(=O)Nc2ccc(Cl)cc2S1(=O)=O | IIIB | - | cytopathic effect / MTT | 13 µM
CC(C)=CCN1Cc2cccc3[nH]c(=S)n(c23)C[C@@H]1C | IIIB | - | - | <0.2 µM
CCOCn1c(Sc2cccc3ccccc23)c(CC)c(=O)[nH]c1=O | IIIB | - | cytopathic effect / MTT | 0.15 µM
CCc1c(Sc2ccc3ccccc3c2)n(COCc2ccccc2)c(=O)[nH]c1=O | IIIB | - | cytopathic effect / MTT | 0.65 µM
Cc1cc(C#N)cc(C)c1Oc1nc(Nc2ccc(C#N)cc2)ncc1SCC(=O)N1CCSCC1 | - | RES056 | MTT | 3.91 µM